PubChem BioAssay AID1259414, Drosophila RNAi Screening Center | 2018
The deposit covers about 24,000 reagents; shown is a random part of those that have a named target and a result. In the full data, about 1,210 (5%) are marked active. 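Inactive calls also include excluded dsRNAs with several or no targets, genes unexpressed in JW18, and well A1, regardless of score.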 A number with no mark means an inactive call. Reagents against one gene are numbered here. A plus sign joins genes that one reagent is predicted to hit.

Assay: 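Host factors increasing or decreasing Wolbachia levels in cultured fly cells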 (primary screen)
Cell system: Drosophila JW18 cells infected with Wolbachia
Knock-down reagent: long dsRNA against Drosophila genes, 0.25 µg dsRNA per well of a 384-well plate
Time to read-out: 5 days
Challenge: cells persistently infected with Wolbachia before knock-down; no added drug
Detection: 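Automated imaging of bacterial rRNA staining divided by host cell count, reported as plate-normalised robust z-score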
Reading the numbers: Wolbachia per cell robust z: higher = more Wolbachia per host cell than the plate typical
Rule for the call: 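Active if absolute robust z reaches 1.5 in two or more of three replicates, leaving out multi- or no-target dsRNAs, genes unexpressed in JW18 and A1 wells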

| Wolbachia per cell robust z, rep 1 | Wolbachia per cell robust z, rep 2 | Wolbachia per cell robust z, rep 3 | predicted target | dsRNA no. |
| --- | --- | --- | --- | --- |
| 0.131 | -0.0133 | -0.112 | Idgf2 (Imaginal disc growth factor 2) | 1 |
| -5.73 (active) | -1.36 | -1.62 | Idgf2 (Imaginal disc growth factor 2) | 2 |
| 0.604 | 0.494 | -0.49 | Idgf2 (Imaginal disc growth factor 2) | 3 |
| -0.48 | 0.361 | -7.95 | CG33489 | 1 |
| 0.0384 | -0.78 | 0.41 | CG33489 | 2 |
| -0.619 | 0.782 | -0.0166 | fs(2)ltoPP43 (female sterile (2) ltoPP43) | 1 |
| 1.04 | -0.098 | 0.615 | fs(2)ltoPP43 (female sterile (2) ltoPP43) | 2 |
| 0.937 | 1.3 | -3.22 | CG14835 | 1 |
| 1.18 | 1.3 | 2.68 | D19A | 1 |
| -0.0541 | 0.657 | 0.626 | D19A | 2 |
| 0.925 | -4.48 | 0.342 | PIG-C (Phosphatidylinositol glycan anchor biosynthesis class C) | 1 |
| 0.635 | 0.708 | -5.48 | ppk24 (pickpocket 24) | 1 |
| 2.19 (active) | 1.5 | 1.48 | me31B (maternal expression at 31B) | 1 |
| 0.139 | -0.216 | 0.55 | CG32425 | 1 |
| -2.78 | -0.727 | 0.0653 | CG12071 | 1 |
| -3.1 | -0.201 | -0.183 | vis (vismay) | 1 |
| 1.01 | 0.307 | 0.958 | CkIIbeta (Casein kinase II beta subunit) | 1 |
| 0.773 | -0.801 | 0.0917 | alpha-Man-IIa (alpha-Mannosidase class II a) | 1 |
| -0.62 | -0.0188 | -1.36 | CG13244 | 1 |
| 0.126 | 0.37 | 0.206 | CG9016 | 1 |
| 0.428 | 1.27 | -0.0872 | CG9016 | 2 |
| 0.00298 | -0.758 | -0.602 | CG32713 + CG33223 | 1 |
| -0.993 | 0.5 | -2.44 | Raf (Raf oncogene) | 1 |
| 0.459 | 1.18 | -1.12 | Raf (Raf oncogene) | 2 |
| 0.735 | -0.521 | 0.783 | Raf (Raf oncogene) | 3 |
| -0.648 | -0.597 | -5.32 | pug (pugilist) | 1 |
| 0.064 | 0.0408 | 0.974 | pug (pugilist) | 2 |
| 0.553 | 0.133 | 0.594 | CG18542 + CG32939 | 1 |
